# Measured values: paper PMC12777753 (Emerging Microbes & Infections, 2025)
# The chains behind the UniProt entries cited, without tags or fusion partners. Residues count along the entry.
# UniProt Q9Q0U7, whole entry, looked up: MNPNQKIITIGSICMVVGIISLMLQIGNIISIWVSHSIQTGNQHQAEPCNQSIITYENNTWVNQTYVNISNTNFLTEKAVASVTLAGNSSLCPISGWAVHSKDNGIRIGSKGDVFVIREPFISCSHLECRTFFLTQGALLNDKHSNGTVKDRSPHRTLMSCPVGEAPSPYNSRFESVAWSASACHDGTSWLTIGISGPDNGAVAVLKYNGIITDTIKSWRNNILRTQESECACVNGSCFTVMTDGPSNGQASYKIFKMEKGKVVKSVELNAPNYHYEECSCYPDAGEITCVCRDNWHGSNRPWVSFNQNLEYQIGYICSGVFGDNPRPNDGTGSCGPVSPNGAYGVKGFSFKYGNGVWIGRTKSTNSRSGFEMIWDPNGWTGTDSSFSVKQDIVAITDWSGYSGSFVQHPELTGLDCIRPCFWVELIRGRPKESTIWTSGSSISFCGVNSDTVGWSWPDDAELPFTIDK
# UniProt Q8QPK2, 82-469 limits assumed: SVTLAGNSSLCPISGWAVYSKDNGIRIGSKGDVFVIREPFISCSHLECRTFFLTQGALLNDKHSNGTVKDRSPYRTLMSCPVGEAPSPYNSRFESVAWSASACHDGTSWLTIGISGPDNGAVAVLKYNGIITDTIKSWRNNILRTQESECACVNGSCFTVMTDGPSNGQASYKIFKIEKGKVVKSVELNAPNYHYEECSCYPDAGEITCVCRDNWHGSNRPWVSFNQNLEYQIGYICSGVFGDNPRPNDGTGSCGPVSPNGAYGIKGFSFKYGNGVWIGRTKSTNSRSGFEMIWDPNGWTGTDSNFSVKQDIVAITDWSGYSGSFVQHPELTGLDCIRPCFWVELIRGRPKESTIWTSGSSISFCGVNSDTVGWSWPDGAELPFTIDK
# Columns and labels:
# [1] = target: recNA A/California/148/2024 (genotype B3.13) WT (Influenza A virus, UniProt Q9Q0U7); assay type: biochemical, influenza A(H5N1) virus
# [2] = target: NA of A/California/153/2024 (Influenza A virus, UniProt Q9Q0U7); assay type: biochemical, influenza A(H5N1) virus; settings: read-out: NA inhibitor IC50 ± SD
# [3] = target: NA of Genotype B3.13 viruses (n = 10) (Influenza A virus, UniProt Q9Q0U7); settings: read-out: NA inhibitor IC50, median
# [4] = target: NA of A/California/173/2024 (Influenza A virus, UniProt Q9Q0U7); assay type: biochemical, influenza A(H5N1) virus; settings: read-out: NA inhibitor IC50 ± SD
# [5] = target: NA of A/California/151/2024 (Influenza A virus, UniProt Q9Q0U7); assay type: biochemical, influenza A(H5N1) virus; settings: read-out: NA inhibitor IC50 ± SD
# [6] = target: NA of A/bald eagle/FL/2022 (H5N1) (Influenza A virus, UniProt Q9Q0U7); assay type: biochemical; settings: read-out: NA inhibitor IC50 ± SD
# [7] = target: recNA A/Washington/239/2024 (genotype D1.1) WT (Influenza A virus, UniProt Q8QPK2); assay type: biochemical, influenza A(H5N1) virus
# NA of A/Wyoming/01/2025 = NA of A/Wyoming/01/2025 (Influenza A virus, UniProt Q9Q0U7); assay type: biochemical, influenza A(H5N1) virus; settings: read-out: NA inhibitor IC50 ± SD
# [8] = target: NA of Genotype D1.1 viruses (n = 7) (Influenza A virus, UniProt Q9Q0U7); settings: read-out: NA inhibitor IC50, median
# [9] = target: NA of A/California/155/2024 (Influenza A virus, UniProt Q9Q0U7); assay type: biochemical, influenza A(H5N1) virus; settings: read-out: NA inhibitor IC50 ± SD
# [10] = target: NA of A/California/152/2024 (Influenza A virus, UniProt Q9Q0U7); assay type: biochemical, influenza A(H5N1) virus; settings: read-out: NA inhibitor IC50 ± SD
# [11] = target: NA of A/California/147/2024 (Influenza A virus, UniProt Q9Q0U7); assay type: biochemical, influenza A(H5N1) virus; settings: read-out: NA inhibitor IC50 ± SD
# NA of A/Iowa/24/2024 = NA of A/Iowa/24/2024 (Influenza A virus, UniProt Q9Q0U7); assay type: biochemical, influenza A(H5N1) virus; settings: read-out: NA inhibitor IC50 ± SD
# NA of A/Nevada/10/2025 = NA of A/Nevada/10/2025 (Influenza A virus, UniProt Q9Q0U7); assay type: biochemical, influenza A(H5N1) virus; settings: read-out: NA inhibitor IC50 ± SD
# [12] = target: NA of A/California/148/2024 (Influenza A virus, UniProt Q9Q0U7); assay type: biochemical, influenza A(H5N1) virus; settings: read-out: NA inhibitor IC50 ± SD
substance,measurement,setting,value
oseltamivir carboxylate,IC50,[1],3.99 nM
same,IC50,[2],3.56 nM
same,IC50,[3],3.5 nM
same,IC50,[4],3.26 nM
same,IC50,[5],3.54 nM
same,IC50,[6],3.09 ± 0.62 nM
same,IC50,[7],3.52 nM
same,IC50,NA of A/Wyoming/01/2025,2.94 nM
same,IC50,[8],2.87 nM
same,IC50,[9],2.71 nM
same,IC50,[10],3.45 nM
same,IC50,[11],3.62 nM
same,IC50,NA of A/Iowa/24/2024,2.45 nM
same,IC50,NA of A/Nevada/10/2025,2.45 nM
same,IC50,[12],3.31 nM
